Assay results from PubChem BioAssay AID2221 (Broad Institute, 2009).
This is a selection; strong and weak results do not stand in their true shares. Activity calls are given as the source filed them. No stated cut-off is given here; in the data, active means inhibition above about 30%; inconclusive means no clear call, values can overlap the other calls; inactive means below that.

Sequences of proteins named here, by UniProt entry; tags and fusion partners are left off.
UniProt P9WHJ3, whole entry: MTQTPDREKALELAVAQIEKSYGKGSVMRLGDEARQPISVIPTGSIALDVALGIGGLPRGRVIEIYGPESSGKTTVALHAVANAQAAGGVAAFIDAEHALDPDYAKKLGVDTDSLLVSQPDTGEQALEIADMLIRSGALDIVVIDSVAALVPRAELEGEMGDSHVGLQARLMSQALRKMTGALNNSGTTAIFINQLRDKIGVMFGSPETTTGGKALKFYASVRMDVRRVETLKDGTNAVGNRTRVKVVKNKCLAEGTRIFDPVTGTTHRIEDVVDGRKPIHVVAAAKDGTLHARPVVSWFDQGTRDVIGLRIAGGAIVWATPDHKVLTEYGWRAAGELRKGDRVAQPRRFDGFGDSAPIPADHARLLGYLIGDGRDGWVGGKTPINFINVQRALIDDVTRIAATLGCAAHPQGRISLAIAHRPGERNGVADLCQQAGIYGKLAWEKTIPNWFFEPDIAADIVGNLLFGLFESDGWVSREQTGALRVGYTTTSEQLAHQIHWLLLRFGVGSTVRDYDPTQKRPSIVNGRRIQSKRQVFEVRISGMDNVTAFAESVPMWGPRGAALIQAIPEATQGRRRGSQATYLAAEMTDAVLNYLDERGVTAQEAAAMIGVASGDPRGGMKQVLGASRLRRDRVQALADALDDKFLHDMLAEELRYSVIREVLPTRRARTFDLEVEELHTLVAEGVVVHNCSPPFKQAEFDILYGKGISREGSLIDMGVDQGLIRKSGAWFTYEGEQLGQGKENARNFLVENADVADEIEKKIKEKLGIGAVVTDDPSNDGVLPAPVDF

Each compound was assayed against Protein RecA (Mycobacterium tuberculosis (strain ATCC 25618 / H37Rv)) (UniProt P9WHJ3) (assay: Mtb RecA intein splicing inhibitors, primary screen, biochemical, fluorescence, HTS (AID 2221;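 further: 0% = vehicle wells and 100% = reference inhibitor control wells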)). Conditions: cell-free RecA intein splicing, hits give high values, concentration not given here.

SMILES | inhibition
COc1cc(I)ccc1[As](=O)(O)O | inactive: 2.17%
COc1ccc2nc(NP(=O)(c3ccccc3)c3ccccc3)sc2c1 | inactive: 0.452%
CCN(CC)CCCOC(=O)C(O)(c1ccccc1)c1ccccc1 | inactive: -2.5%
Cc1cc(=O)[nH]c(N[N+](=O)[O-])n1 | inactive: -0.0886%
O=C(OC1CN2CCC1CC2)C12CC3CC(CC(C3)C1)C2 (stereo not drawn) | inactive: -0.808%
Cc1c2c(nc3ccccc13)SC(C(Cl)Cl)C2 (stereo not drawn) | inactive: 3.48%
COc1ccc(N/C(=N/P(=O)(N2CCOCC2)N2CCOCC2)N2CCOCC2)cc1 | inactive: 0.957%
O=[N+]([O-])c1ccc2c(c1)C=Nc1ccccc1O2 | active: 33.3%
Cc1cccc(C)c1OP(C)(N)=O (stereo not drawn) | inactive: -2.6%
CC(C)(C)c1ccc(OP(C)(=O)Nc2ccc(SC(F)(F)F)cc2)cc1 (stereo not drawn) | inactive: 0.745%
Cc1ccc(OP(=O)(Nc2ccc([N+](=O)[O-])cn2)Oc2ccc(C)cc2)cc1 | inactive: 0.027%
C[As](=O)(O)c1cccc(C(=O)O)c1 | inactive: 1.03%
O=[As](O)(c1ccc(O)cc1)c1ccccc1O | inactive: -0.132%
O=[N+]([O-])c1cc([N+](=O)[O-])c(Nc2cccnc2)c([N+](=O)[O-])c1 | active: 38.3%
Cc1cc(C)cc(OP(C)(N)=O)c1 (stereo not drawn) | inactive: -1.38%
O=[N+]([O-])c1cc([N+](=O)[O-])c(-c2ccn[nH]2)s1 | inactive: 5.29%
COc1ccc(OP(C)(=O)Nc2cccc(F)c2)cc1 (stereo not drawn) | inactive: -2.26%
CCN(CC)C(=S)SC(NC=O)C(Cl)(Cl)Cl (stereo not drawn) | inactive: -1.79%
CC(C)NC(=O)NP(=O)(Oc1ccccc1)Oc1ccccc1 | inactive: -0.0889%
COc1ccccc1OP(C)(=O)Nc1cc(Cl)ccc1C (stereo not drawn) | inactive: 3.59%
COc1ccccc1OP(C)(=O)Nc1ccc(C)cc1 (stereo not drawn) | inactive: 1.62%

SMILES | inhibition
ClCCSc1nnc(-c2cccnc2)o1 | inactive: 2.32%
CCOC(=O)c1ccc(NP(C)(=O)Oc2ccccc2)cc1 (stereo not drawn) | inactive: -0.388%
Cc1cc(SC(NC(=O)c2ccccc2)C(Cl)(Cl)Cl)nc(C(C)C)n1 (stereo not drawn) | inactive: 3.82%
CCCCOc1ccc(C(=O)NCC2(N3CCCCC3)CCCCC2)cc1OC | inactive: 3.14%
CCOC(=O)Nc1ccc([As](=O)(O)O)c(O)c1 | inactive: -0.252%
O=[N+]([O-])c1ccc(Nc2ccc(Oc3ccc([N+](=O)[O-])cc3[N+](=O)[O-])cc2)c([N+](=O)[O-])c1 | inactive: 3.11%
CP(=O)(Nc1ccccc1Br)Oc1ccccc1 (stereo not drawn) | inactive: -0.382%
COc1ccccc1OP(C)(=O)Nc1ccccc1 (stereo not drawn) | inactive: 1.91%
Cc1cc(SC(NC=O)C(Cl)(Cl)Cl)ncn1 (stereo not drawn) | inactive: -2.68%
O=P(Nc1ccccn1)(c1cccc2ccccc12)c1cccc2ccccc12 | inactive: -1.62%
CCOC(=O)Nc1cccc([As](=O)(O)O)c1 | inactive: 1.59%
CP(=S)(Nn1cnnc1)Oc1ccccc1 (stereo not drawn) | inactive: 1.77%
O=C(Nc1ccncc1[N+](=O)[O-])c1ccc([N+](=O)[O-])cc1[N+](=O)[O-] | inactive: -1.34%
Cc1cc(C)cc(OP(C)(=O)Nc2ccc(SC(F)(F)F)cc2)c1 (stereo not drawn) | inactive: -0.533%
CCc1ccc(OP(C)(=O)N2CCN(c3ccc([N+](=O)[O-])cc3)CC2)cc1 (stereo not drawn) | inactive: 4.32%
CP(=O)(NC(=O)Nc1ccccc1)Oc1ccccc1 (stereo not drawn) | inactive: 1.14%
O=C(COc1ccccc1)OC1CN2CCC1CC2 (stereo not drawn) | inactive: -1.75%
CP(=O)(Oc1ccccc1)OC(c1ccccc1)C(F)(F)F (stereo not drawn) | inactive: 0.348%
Cc1cccc(C)c1OP(C)(=O)Nc1ccc(SC(F)(F)F)cc1 (stereo not drawn) | inactive: 4.16%
COP1(=S)c2c(C)nn(CCC#N)c2N=C(c2ccc(F)cc2)N1C (stereo not drawn) | inactive: -1.72%
CP(=O)(Nc1ccccn1)Oc1ccc(Cl)cc1 (stereo not drawn) | inactive: 0.597%

SMILES | inhibition
CCC(C)N(CC(C)C)C(=S)SC(NC(C)=O)C(Cl)(Cl)Cl (stereo not drawn) | inactive: -20.9%
O=[N+]([O-])c1cc([N+](=O)[O-])c(O)c([N+](=O)[O-])c1.c1ccc(Oc2ccncc2)cc1 | inactive: 8.86%
CCOC(=O)c1ccc(NC(=O)C(C)(CCl)SC)cc1 (stereo not drawn) | inactive: -2%
CCOC(=O)c1ccc(NP(C)(=O)Oc2ccc(OC)cc2)cc1 (stereo not drawn) | inactive: 1.99%
O=C(OC1CN2CCC1CC2)c1cccc([N+](=O)[O-])c1 (stereo not drawn) | inactive: -3.82%
CCOP(C)(=S)SCC(=O)NC(C)C(=O)O (stereo not drawn) | inactive: 1.15%
CC(C)(C)C(=O)NC(Sc1ncccn1)C(Cl)(Cl)Cl (stereo not drawn) | inactive: -2.41%
Clc1n[nH]nc1-c1nn[nH][15n]1 | inactive: -0.719%
CN(CCCl)Cc1cc(Cl)c(NC2=NCCN2)c(Cl)c1 | inactive: -0.439%
CCOP(=O)(Nc1ccc(C)cn1)OCC | inactive: 0.567%
CCOP(=O)(NC(=NC(C)c1ccccc1)NC(C)c1ccccc1)OCC (stereo not drawn) | inactive: 4.84%
CCC1=CC2Cc3nc4ccc(Cl)cc4c(N)c3C(C1)C2 (stereo not drawn) | inactive: 2.2%
O=P1(Nc2ccccn2)COc2ccccc2OC1 | inactive: -0.31%
CC1(CBr)Cn2c(nc3ccccc3c2=O)S1 (stereo not drawn) | inactive: -0.744%
O=[As](O)(c1ccccc1Br)c1ccccc1Br | inactive: -0.0357%
CN(C(=O)Cc1ccc(Cl)c(Cl)c1)[C@@H]1CCCC[C@H]1N1CCCC1 | inactive: -1.16%
CC(C)/C=N\N=C(\N)N[N+](=O)[O-] | inactive: -1.66%
COc1ccccc1CNC(=O)COC(=O)C(O)(c1ccccc1)c1ccccc1 | inactive: -1.65%
O=[N+]([O-])c1cc([N+](=O)[O-])c(-c2cnn(-c3ccccc3)c2)c([N+](=O)[O-])c1 | inactive: -0.749%
O=C(/C=C/c1ccccc1)OC1CN2CCC1CC2 (stereo not drawn) | inactive: 1.19%
CCOC(=O)C(CC)C1=NC(C)(C)Cc2ccccc21.O=[N+]([O-])c1cc([N+](=O)[O-])c(O)c([N+](=O)[O-])c1 (stereo not drawn) | inactive: 8.07%
